Test [1] deals with human NaV1.4 sodium channel (human) (UniProt P35499). The test is described as follows: cell-based or functional assay.
The target in test [2] is human NaV1.4 sodium channel (human), P35499. The test is described as follows: cell-based or functional assay.

For the molecule “CnIIIC standard (commercially available synthetic µ-conotoxin CnIIIC) (from UniProt I1SB07 1-22) (peptide)”, in test [1], the IC50, inhibition of sodium ion current (patch-clamp, Xenopus oocytes) is 0.0336 µM and the IC99, inhibition of sodium ion current (patch-clamp, Xenopus oocytes) was 3.3 µM.
In test [2], RHGCCKGPKGCSSRECRPQHCC (modifications not checked) [recombinant µ-conotoxin TIIIA] had an IC50, inhibition of sodium ion current (patch-clamp, Xenopus oocytes) of 9.7 µM and an IC99, inhibition of sodium ion current (patch-clamp, Xenopus oocytes) of 0.97 mM.

These data come from patent EP4361172A2.
